One series relates to CC[C@H](C)[C@H](N)C(=O)O. Nature of the series: purified protein. The conditions noted are these: 20 mM alpha-KG, assay: 1 mM FeSO4, 5 mM ascorbic acid, PBS pH 7.0, 30°C.
A further series relates to O=C(O)CCC(=O)C(=O)O. Nature of the series: purified protein. To be noted: 20 mM L-Ile, assay: 1 mM FeSO4, 5 mM ascorbic acid, PBS pH 7.0, 30°C.
Setting [1] is: printed Km disagrees with printed kcat/Km, possible misprint.
[2] abbreviates: engineered disulfide C181-C226, text b43 prints a different kcat (0.14 s^-1).

As to “L-isoleucine hydroxylase (IDO) (Bacillus cereus ATCC 14579; K157C)”, the Km with CC[C@H](C)[C@H](N)C(=O)O (setting [1]) and in the series on O=C(O)CCC(=O)C(=O)O (setting [1]) was 900 µM in each case. The results for the kcat with CC[C@H](C)[C@H](N)C(=O)O (setting [1]) and with O=C(O)CCC(=O)C(=O)O (setting [1]) were 0.83 s⁻¹ and 0.14 s⁻¹, respectively.

“L-isoleucine hydroxylase (IDO) (Bacillus cereus ATCC 14579; T186C)”: in the series with CC[C@H](C)[C@H](N)C(=O)O (engineered disulfide C181-C226), the Michaelis constant (Km) is 380 µM, the kcat stood at 0.92 s⁻¹ and the catalytic efficiency (kcat/Km) amounted to 3590 M⁻¹ s⁻¹. Further, in the series on O=C(O)CCC(=O)C(=O)O (setting [2]), the Km turned out to be 2170 µM, the kcat came to 0.47 s⁻¹ and the kcat/Km was 220 M⁻¹ s⁻¹.

These data come from publication PMC6999076, “Engineered disulfide bonds improve thermostability and activity of L‐isoleucine hydroxylase for efficient 4‐HIL production in Bacillus subtilis 168” (Engineering in Life Sciences, 2019).
